Reference: patent US8053553B2 (Socpra Sciences Sante Et Humaines, priority 2007, dated 2011)

Assay: Fmoc solid-phase peptide synthesis; Rink resin; Diisopropylcarbodiimide
Conditions: whole synthesis, UV 217 nm, scale 1 g, 0.45 mmol/g, lyophilized from 0.1 M HCl

**Q.** Which “final HPLC purity” value does the source give for TPRARRRKKRT here?
**A.** The value was “exceed 95%”.

Plain letter strings leave the end groups untold.
